Measured values from several laboratories, pooled; numbers as filed in NIAID ChemDB.

Shared fields: toxicity to cultured cells; endpoint: CC50

Lines come from different laboratories, so protocols vary. CCn: concentration that lowers growth or viability of the cells by n%. Blank or dashed fields: not listed here. a–b is a range or a potency band.

SMILES,read by,cell line,result
NNC(=O)c1cc(C2CCC(C(F)(F)F)CC2)c2ccccc2n1,MTT / absorbance,Mouse fibroblasts,>200 µg/mL
O=C1O[C@@](CCl)(c2ccccc2)c2ccccc21,MTT,TZM-bl,154.6 µM
CC(C)=CC[C@H]1C[C@@]2(C[C@H]3CCC(C)(C)C=C3C)C(=O)[C@](C(=O)c3ccccc3)(C(=O)C3=C2OC(C)(C)CC3)C1(C)C,sulforhodamine / absorbance,HT-29,>50 µM
CCOC(=O)c1ccc2nc(-c3ccc(O)cc3O)[nH]c2c1,MTT,Vero cell,>62.5 µg/mL
CC[C@H](C)[C@@H](C(=O)O)n1sc2ccccc2c1=O,-,Macrophage,>100 µM
CO[C@H]1/C=C/O[C@@]2(C)Oc3c(C)c(O)c4c(O)c(c(/C=N/N5CCN(C)CC5)c(O)c4c3C2=O)NC(=O)/C(C)=C\C=C\[C@H](C)[C@H](O)[C@@H](C)[C@@H](O)[C@@H](C)[C@H](OC(C)=O)[C@@H]1C,MTT,MCF-7,>100 µg/mL
CC(N)C12CC3CC(CC(C3)C1)C2,-,Panc-1,10–4000 µM
CCOC(=O)c1ccc2nc(-c3ccc4c(c3)OCO4)[nH]c2c1,MTT,Vero cell,>62.5 µg/mL
CCCCSc1n[nH]c(-c2ccccc2C)n1,MTT,THP-1,>100 µg/mL
c1cc(CN2CCCNCCNCCCNCC2)ccc1CN1CCCNCCNCCCNCC1,-,P4R5,>10 µM
CCC(Cl)C1(c2ccc(Br)cc2)OC(=O)c2ccccc21,MTT,TZM-bl,220 µM
CC(=O)O[C@H]1C(=O)[C@@]2(C)[C@H]([C@H](OC(=O)c3ccccc3)[C@]3(O)C[C@H](OC(=O)[C@H](O)[C@@H](NC(=O)c4ccccc4)c4ccccc4)C(C)=C1C3(C)C)[C@]1(OC(C)=O)CO[C@@H]1C[C@@H]2O,MTT,HCT116,0.1279 µg/mL
CCOC(=O)c1ccc2c(c1)nc(-c1ccc(Cl)cc1)n2CCN1CCCC1=O,MTT,Vero cell,>62.5 µg/mL
Nc1nc(NC2CC2)c2ncn([C@H]3C=C[C@@H](CO)C3)c2n1,MTS,CEM-GFP,422 µM
CC1Oc2cc(O)c3c(=O)c4ccc(O)c(O)c4oc3c2C1(C)C,sulforhodamine / absorbance,MCF-7,2.13 µM
CCC(Cl)C1(c2ccc(F)cc2)OC(=O)c2ccc(Cl)cc21,MTT,TZM-bl,237 µM
S=c1nc(-c2ccco2)[nH][nH]1,MTT,THP-1,>100 µg/mL
CCc1nc(N)nc(N)c1-c1ccc(Cl)cc1,MTT,Vero cell,>62.5 µg/mL
CC(C)=CC[C@H]1C[C@]2(C[C@H]3CCC(C)(C)C=C3C)C(=O)C3=C(OC(C)(C)CC3)[C@@](C(=O)c3ccccc3)(C2=O)C1(C)C,sulforhodamine / absorbance,P-388,>50 µM
Cc1cn([C@H]2CC[C@@H](CO)O2)c(=O)[nH]c1=O,trypan blue,ATH8,>2000 µM
O=C1O[C@@](CCl)(c2ccc(F)cc2)c2ccccc21,MTT,TZM-bl,72.3 µM
Nc1ccc(-c2nc(=S)[nH][nH]2)cc1,MTT,THP-1,>100 µg/mL
Nc1ncnc2c1ncn2[C@@H]1C=C(CO)[C@@H](O)[C@H]1O,-,MA-104,14 µg/mL
CCOC(=O)c1ccc2c(c1)nc(-c1ccc([N+](=O)[O-])cc1)n2CCN1CCCC1=O,MTT,Vero cell,>62.5 µg/mL
COc1ccc(-c2cc(OC)c(O)c(OC)c2O)cc1,sulforhodamine / absorbance,MCF-7,>50 µM
C[C@@]12C(=O)OC(=O)[C@]1(C)[C@H]1CC[C@@H]2O1,-,EBTR,50 µM
CCC(O)c1cc(C23CC4CC(CC(C4)C2)C3)c2ccccc2n1,MTT / absorbance,Mouse fibroblasts,>200 µg/mL
Cc1cn([C@H]2C[C@H](N=[N+]=[N-])[C@@H](CO)O2)c(=O)[nH]c1=O,MTS,CEM-GFP,>1000 µM
COc1cc(-c2ccccc2)c(OC)c(OC)c1O,sulforhodamine / absorbance,HT-29,>50 µM
O=C1Nc2ccc(Cl)cc2[C@@](C#CC2CC2)(C(F)(F)F)O1,MTS,CEM-GFP,42 µM
Nc1ccn([C@H]2CC[C@@H](CO)O2)c(=O)n1,trypan blue,ATH8,35 µM
Nc1nccc2c1ncn2[C@@H]1C=C(CO)[C@@H](O)[C@H]1O,-,PRK,0.14 µg/mL
C[C@H]1[C@H](O)C(=O)CC2[C@]3(C)CC[C@@]4(C)C5CC(C)(C)CC[C@]5(C)CC[C@]4(C)C3CC[C@@]21C,sulforhodamine / absorbance,KB,>50 µM
CC1CCCCC1c1cc(C(=O)NN)nc2ccccc12,MTT / absorbance,Mouse fibroblasts,>200 µg/mL
CCOC(=O)c1ccc2c(c1)nc(-c1ccc(C(F)(F)F)cc1)n2CCN1CCCOC1,MTT,Vero cell,>62.5 µg/mL
FC(F)(F)c1ccccc1-c1nc(=S)[nH][nH]1,MTT,Panc-1,>100 µg/mL
CCOC(=O)c1ccc2c(c1)nc(-c1ccc(OC(F)(F)F)cc1)n2CCN1CCCC1=O,MTT,Vero cell,>62.5 µg/mL
CC(C)NS(=O)(=O)c1nc(-c2ccc(Cl)cc2)n[nH]1,MTT,THP-1,>100 µg/mL
NNC(=O)c1cc(CC2CC3CCC2C3)c2ccccc2n1,MTT / absorbance,Mouse fibroblasts,>200 µg/mL
CCC(Cl)C1(c2ccc(F)cc2)OC(=O)c2c(Cl)c(Cl)c(Cl)c(Cl)c21,MTT,TZM-bl,182 µM
Nc1ccn([C@@H]2CS[C@H](CO)O2)c(=O)n1,MTS,CEM-GFP,>1000 µM